Laboratory results: patent US10206902B2, “Mono- or di-substituted indoles as dengue viral replication inhibitors” (priority 2014, dated 2019)

Each molecule was assayed on DENV-2 16681 strain (assay: DENV-2 antiviral assay (eGFP-labelled virus in Vero cells)). Conditions: SI=CC50/EC50, DENV-2 antiviral assay.
Format: cell-based, Dengue virus
Description: The antiviral activity of all the compounds of the invention was tested against DENV-2 16681 strain which was labeled with enhanced green fluorescent protein (eGPF). The culture medium consists of minimal essential medium supplemented with 2% of heat-inactivated fetal calf serum, 0.04% gentamycin (50 mg/mL) and 2 mM of L-glutamine. Vero cells, obtained from ECACC, were suspended in culture medium and 25 μL was added to 384-well plates (2500 cells/well), which already contain the antiviral compounds. Typically, these plates contain a 4-fold serial dilution of 9 dilution steps of the test compound at 200 times the final concentration in 100% DMSO (200 nL). In addition, each compound concentration is tested in quadruplicate (final concentration range: 25 μM-0.00038 μM). Finally, each plate contains wells which are assigned as virus controls (containing cells and virus in the absence of compound), cell controls (containing cells in the absence of virus and compound) and medium controls (containing medium in the absence of cells, virus and compounds). To the wells assigned as medium control, 25 μL of culture medium was added instead of Vero cells. Once the cells were added to the plates, the plates were incubated for 30 minutes at room temperature to allow the cells to distribute evenly within the wells. Next, the plates were incubated in a fully humidified incubator (37° C., 5% CO2) until the next day. Then, DENV-2 strain 16681, labeled with eGFP, was added at a multiplicity of infection (MOI) of 0.5. Therefore, 15 μL of virus suspension was added to all the wells containing test compound and to the wells assigned as virus control. In parallel, 15 μL of culture medium was added to the medium and cell controls. Next, the plates were incubated for 3 days in a fully humidified incubator (37° C., 5% CO2). At the day of the read out, the eGFP fluorescence was measured using an automated fluorescence microscope at 488 nm (blue laser). Using an in-house LIMS system, inhibition dose response curves for each compound were calculated and the half maximal effective concentration (EC50) was determined. Therefore, the percent inhibition (I) for every test concentration is calculated using the following formula: I=100*(ST−SCC)/(SVC−SCC); ST, SCC and SVC are the amount of eGFP signal in the test compound, cell control and virus control wells, respectively. The EC50 represents the concentration of a compound at which the virus replication is inhibited with 50%, as measured by a 50% reduction of the eGFP fluorescent intensity compared to the virus control. The EC50 is calculated using linear interpolation (Table 1).

Q: For `COc1cc(NC(C(=O)c2c[nH]c3cc(OC)c(F)cc23)c2ccc(F)cc2OC)cc(OCCO)c1` (racemic) [Compound 7, 2-(4-fluoro-2-methoxyphenyl)-1-(5-fluoro-6-methoxy-1H-indol-3-yl)-2-((3-(2-hydroxyethoxy)-5-methoxyphenyl)amino)ethanone], which SI is on record?
A: Its SI is 1049.

Q: Which SI does the source give for `COc1cc(NC(C(=O)c2c[nH]c3c(C)c(F)ccc23)c2ccc(F)cc2OC)cc(OCCO)c1` (single isomer, unassigned) [Compound 2A, 2-(4-fluoro-2-methoxyphenyl)-1-(6-fluoro-7-methyl-1H-indol-3-yl)-2-((3-(2-hydroxyethoxy)-5-methoxyphenyl)amino)ethanone] here?
A: Its SI is 8.1.

Q: Which SI does the source give for `COc1cc(NC(C(=O)c2c[nH]c3cc(OC)c(F)cc23)c2ccc(F)cc2OC)cc(OCCO)c1` (single isomer, unassigned) [Compound 7B, 2-(4-fluoro-2-methoxyphenyl)-1-(5-fluoro-6-methoxy-1H-indol-3-yl)-2-((3-(2-hydroxyethoxy)-5-methoxyphenyl)amino)ethanone] here?
A: Its SI is 39.

Q: How did the SI turn out when `COc1cc(NC(C(=O)c2c[nH]c3cc(F)c(F)cc23)c2ccc(F)cc2OC)cc(OCCO)c1` (single isomer, unassigned) [Compound 10A, 1-(5,6-difluoro-1H-indol-3-yl)-2-(4-fluoro-2-methoxy-phenyl)-2-((3-(2-hydroxyethoxy)-5-methoxyphenyl)amino)ethanone] was run?
A: The SI was 19.

Q: For `COc1cc(NC(C(=O)c2c[nH]c3c(C)c(OC)ccc23)c2ccc(F)cc2OC)cc(OCCO)c1` (racemic) [Compound 11, 2-(4-fluoro-2-methoxyphenyl)-2-((3-(2-hydroxyethoxy)-5-methoxyphenyl)amino)-1-(6-methoxy-7-methyl-1H-indol-3-yl)ethanone], which SI is on record?
A: The SI was 4455.

Q: `COc1cc(NC(C(=O)c2c[nH]c3c(C)c(Cl)ccc23)c2ccc(F)cc2OC)cc(OCCO)c1` (single isomer, unassigned) [Compound 3B, 1-(6-chloro-7-methyl-1H-indol-3-yl)-2-(4-fluoro-2-methoxyphenyl)-2-((3-(2-hydroxyethoxy)-5-methoxyphenyl)amino)ethanone] was tested. Which SI did it give?
A: The SI was 32.

Q: How did the SI turn out when `COc1cc(NC(C(=O)c2c[nH]c3c(C)cc(F)cc23)c2ccc(F)cc2OC)cc(OCCO)c1` (single isomer, unassigned) [Compound 9A, 2-(4-fluoro-2-methoxyphenyl)-1-(5-fluoro-7-methyl-1H-indol-3-yl)-2-((3-(2-hydroxyethoxy)-5-methoxyphenyl)amino)ethanone] was run?
A: Its SI is 14.

Q: Which SI does the source give for `COc1cc(NC(C(=O)c2c[nH]c3c(C)cc(F)cc23)c2ccc(F)cc2OC)cc(OCCO)c1` (racemic) [Compound 9, 2-(4-fluoro-2-methoxyphenyl)-1-(5-fluoro-7-methyl-1H-indol-3-yl)-2-((3-(2-hydroxyethoxy)-5-methoxyphenyl)amino)ethanone] here?
A: The SI was 794.

Q: How did the SI turn out when `COc1cc(NC(C(=O)c2c[nH]c3c(C)c(F)ccc23)c2ccc(F)cc2OC)cc(OCCO)c1` (racemic) [Compound 2, 2-(4-fluoro-2-methoxyphenyl)-1-(6-fluoro-7-methyl-1H-indol-3-yl)-2-((3-(2-hydroxyethoxy)-5-methoxyphenyl)amino)ethanone] was run?
A: Its SI is 1291.

Q: How did the SI turn out when `COc1cc(NC(C(=O)c2c[nH]c3cc(OC)c(C)cc23)c2ccc(F)cc2OC)cc(OCCO)c1` (single isomer, unassigned) [Compound 6B, 2-(4-fluoro-2-methoxyphenyl)-2-((3-(2-hydroxyethoxy)-5-methoxyphenyl)amino)-1-(6-methoxy-5-methyl-1H-indol-3-yl)ethanone] was run?
A: Its SI is 33.

Q: With `COc1cc(NC(C(=O)c2c[nH]c3cc(F)ccc23)c2ccc(F)cc2OC)cc(OCCO)c1` (single isomer, unassigned) [Compound 1B, 1-(6-fluoro-1H-indol-3-yl)-2-(4-fluoro-2-methoxyphenyl)-2-((3-(2-hydroxyethoxy)-5-methoxyphenyl)amino)ethanone] as the molecule, how does the SI read?
A: Its SI is 18.

Q: With `COc1cc(NC(C(=O)c2c[nH]c3c(C)c(Cl)ccc23)c2ccc(F)cc2OC)cc(OCCO)c1` (racemic) [Compound 3, 1-(6-chloro-7-methyl-1H-indol-3-yl)-2-(4-fluoro-2-methoxyphenyl)-2-((3-(2-hydroxyethoxy)-5-methoxyphenyl)amino)ethanone] as the molecule, how does the SI read?
A: Its SI is 2915.

Q: With `COc1cc(NC(C(=O)c2c[nH]c3c(F)cc(C)cc23)c2ccc(F)cc2OC)cc(OCCO)c1` (single isomer, unassigned) [Compound 12A, 2-(4-fluoro-2-methoxyphenyl)-1-(7-fluoro-5-methyl-1H-indol-3-yl)-2-((3-(2-hydroxyethoxy)-5-methoxyphenyl)amino)ethanone] as the molecule, how does the SI read?
A: Its SI is 10.

Q: `COc1cc(NC(C(=O)c2c[nH]c3cc(Cl)ccc23)c2ccc(F)cc2OC)cc(OCCO)c1` (single isomer, unassigned) [Compound 4B, 1-(6-chloro-1H-indol-3-yl)-2-(4-fluoro-2-methoxyphenyl)-2-((3-(2-hydroxyethoxy)-5-methoxyphenyl)amino)ethanone] was tested. Which SI did it give?
A: Its SI is 20.

Q: With `COc1cc(NC(C(=O)c2c[nH]c3c(F)c(F)ccc23)c2ccc(F)cc2OC)cc(OCCO)c1` (single isomer, unassigned) [Compound 5A, 1-(6,7-difluoro-1H-indol-3-yl)-2-(4-fluoro-2-methoxyphenyl)-2-((3-(2-hydroxyethoxy)-5-methoxyphenyl)amino)ethanone] as the molecule, how does the SI read?
A: The SI was 17.

Q: Which SI does the source give for `COc1cc(NC(C(=O)c2c[nH]c3c(Cl)c(OC)ccc23)c2ccc(F)cc2OC)cc(OCCO)c1` (racemic) [Compound 8, 1-(7-chloro-6-methoxy-1H-indol-3-yl)-2-(4-fluoro-2-methoxyphenyl)-2-((3-(2-hydroxyethoxy)-5-methoxyphenyl)amino)ethanone] here?
A: The SI was 1733.

Q: Which SI does the source give for `COc1cc(NC(C(=O)c2c[nH]c3c(Cl)c(OC)ccc23)c2ccc(F)cc2OC)cc(OCCO)c1` (single isomer, unassigned) [Compound 8B, 1-(7-chloro-6-methoxy-1H-indol-3-yl)-2-(4-fluoro-2-methoxyphenyl)-2-((3-(2-hydroxyethoxy)-5-methoxyphenyl)amino)ethanone] here?
A: The SI was 59.

Q: For `COc1cc(NC(C(=O)c2c[nH]c3cc(F)ccc23)c2ccc(F)cc2OC)cc(OCCO)c1` (racemic) [Compound 1, 1-(6-fluoro-1H-indol-3-yl)-2-(4-fluoro-2-methoxyphenyl)-2-((3-(2-hydroxyethoxy)-5-methoxyphenyl)amino)ethanone], which SI is on record?
A: The SI was over 1564.

Q: With `COc1cc(NC(C(=O)c2c[nH]c3cc(F)c(F)cc23)c2ccc(F)cc2OC)cc(OCCO)c1` (racemic) [Compound 10, 1-(5,6-difluoro-1H-indol-3-yl)-2-(4-fluoro-2-methoxy-phenyl)-2-((3-(2-hydroxyethoxy)-5-methoxyphenyl)amino)ethanone] as the molecule, how does the SI read?
A: Its SI is 1362.

Q: How did the SI turn out when `COc1cc(NC(C(=O)c2c[nH]c3c(F)c(F)ccc23)c2ccc(F)cc2OC)cc(OCCO)c1` (racemic) [Compound 5, 1-(6,7-difluoro-1H-indol-3-yl)-2-(4-fluoro-2-methoxyphenyl)-2-((3-(2-hydroxyethoxy)-5-methoxyphenyl)amino)ethanone] was run?
A: The SI was 586.

Q: How did the SI turn out when `COc1cc(NC(C(=O)c2c[nH]c3c(C)c(OC)ccc23)c2ccc(F)cc2OC)cc(OCCO)c1` (single isomer, unassigned) [Compound 11B, 2-(4-fluoro-2-methoxyphenyl)-2-((3-(2-hydroxyethoxy)-5-methoxyphenyl)amino)-1-(6-methoxy-7-methyl-1H-indol-3-yl)ethanone] was run?
A: Its SI is 28.
